Pooled drug test results. Numbers come from NIAID ChemDB, via PubChem.

Common to all: whole-cell or culture tests

ECn is the concentration giving n% inhibition of infection, replication or growth. Rows are shuffled and stem from different studies. Percent inhibition refers to the dose given; in toxicity tests it is the harm to the cells. Zones are inhibition diameters on agar. An empty or dashed field is not shown. A number after MIC or MFC names an inhibition level or a share of isolates.

structure	mutations	dose	cell line	read by	strain or isolate	measure	organism	value
C=C(N=CC)c1nc(-c2ccc(C)cc2)n(C2O[C@H](CO)[C@@H](O)[C@H](O)[C@H]2O)n1	-	-	VERO	cytopathic effect	TYPE 1	EC50	Reovirus	>100 µg/mL
Nc1nc2c(ncn2COC(CO)CO)c(=O)[nH]1	-	-	-	plaque count	VR5406 (ganciclovir-resistant)	EC90	Human cytomegalovirus	75 µM
CC(=O)OC[C@H]1O[C@H](OC(=O)NS(=O)(=O)OC[C@H]2O[C@@H](n3ccc(=O)[nH]c3=O)[C@H](OC(C)C)[C@@H]2OC(C)C)[C@@H](OC(C)=O)[C@@H](OC(C)=O)[C@@H]1OC(C)=O	-	-	VERO	plaque count	-	EC50	Sindbis virus	>100 µg/mL
CCC(CC)O[C@@H]1C=C(C(=O)O)C[C@H](N)[C@H]1NC(C)=O	-	-	MDCK	visual reading	Influenza A/Johannesburg/33/94 (H3N2)	EC50	Influenza A virus	0.18 µM
CCCCCCCCCCCCOC(=O)[C@]1(O)C[C@@H](O)[C@@H](O)[C@H](OC(=O)/C=C/c2ccc(O)c(O)c2)C1	-	-	-	absorbance	CBS 112803	MIC80	Aspergillus westerdijkiae	>1500 µg/mL
Nc1nc(=O)n([C@@H]2O[C@H](CO)[C@@H](O)[C@@H]2F)cc1I	-	0.01 µg/mL	HELF	plaque count	Asahikawa	inhibition	Varicella zoster virus	26%
CCCCCCCCCCCCCCCCCCOCCOP(=O)(O)CO[C@H](CO)Cn1ccc(N)nc1=O	-	-	MRC-5	plaque count	-	EC50	Rat cytomegalovirus	0.005 µM
CCC(C)CN=C(N)c1ccc(N2CCN(c3ccccc3)CC2)cc1	-	10 µg/mL	-	-	-	inhibition	Pneumocystis carinii	92%
Cc1ccccc1NC(=S)NC(=O)c1ccccc1COc1ccc(Cl)cc1	-	-	Human foreskin fibroblasts (HFF)	-	RH beta-gal	EC50	Toxoplasma gondii	100 µM
Nc1ccn(C[C@H]2COP(=O)(O)CO2)c(=O)n1	-	-	MRC-5	plaque count	-	EC50	Guinea pig cytomegalovirus	0.5 µM
NC(=NCc1ccc(F)cc1)c1ccc(N2CCN(c3ccccc3)CC2)cc1	-	50 µg/mL	-	-	-	inhibition	Pneumocystis carinii	73%
O=c1[nH]c(=O)n([C@@H]2O[C@H](CO)[C@@H](O)[C@@H]2O)cc1/C=C/Cl	-	0.001 µg/mL	HELF	plaque count	KANNO	inhibition	Varicella zoster virus	100%
O=C(NS(=O)(=O)OC[C@H]1O[C@@H](n2ccc(=O)[nH]c2=O)[C@H](O)[C@@H]1O)O[C@@H]1C[C@@H](OC(=O)c2ccccc2)[C@H](OC(=O)c2ccccc2)[C@@H](COC(=O)c2ccccc2)O1	-	-	VERO	plaque count	-	EC50	Sindbis virus	200 µg/mL
Cc1ccc2c(c1)C(C=NNC(=O)N1c3ccccc3C=Cc3ccccc31)C(c1ccccc1)=N2	-	500 µg/mL	-	agar diffusion	MTCC-1782	zone	Aspergillus terreus	3 mm
CC=NC(=N)c1nc(-c2cccc(OC)c2)n(COCCO)n1	-	-	VERO	cytopathic effect	TYPE B4	EC50	Coxsackie virus	>100 µg/mL
CC(C)O[C@@H]1[C@H](OC(C)C)[C@@H](COS(=O)(=O)NC(=O)O[C@H]2O[C@H](COC(=O)c3ccccc3)[C@@H](OC(=O)c3ccccc3)[C@H](OC(=O)c3ccccc3)[C@@H]2OC(=O)c2ccccc2)O[C@H]1n1ccc(=O)[nH]c1=O	-	-	VERO	plaque count	-	EC50	Sindbis virus	40 µg/mL
CCCCCCCCCCCCCCCCOCCCOP(=O)(O)CO[C@H](CO)Cn1ccc(N)nc1=O	-	-	MRC-5	plaque count	-	EC50	Guinea pig cytomegalovirus	0.0009 µM
CC(C)O[C@@H]1[C@H](OC(C)C)[C@@H](COS(=O)(=O)NC(=O)O[C@@H]2C[C@@H](OC(=O)c3ccccc3)C[C@@H](COC(=O)c3ccccc3)O2)O[C@H]1n1ccc(=O)[nH]c1=O	-	-	VERO	plaque count	-	EC50	Sindbis virus	>200 µg/mL
CCCCCN=C(N)c1ccc(N2CCN(c3ccccc3)CC2)cc1	-	10 µg/mL	-	-	-	inhibition	Pneumocystis carinii	94%
COc1ccc(OCc2ccccc2C(=O)NC(=S)Nc2ccccc2)cc1	-	-	Human foreskin fibroblasts (HFF)	-	RH beta-gal	EC50	Toxoplasma gondii	75 µM
COC(=O)[C@H]1[C@@H]2C[C@@H](O[C@@H]3O[C@H](C)[C@@H](O)[C@H](N)[C@@H]3O)/C=C/C=C/C=C/C=C/C=C/C=C/C=C/[C@H](C)[C@@H](O)[C@H](C)[C@H](C)OC(=O)C[C@H](O)C[C@H](O)[C@@H](O)CC[C@H](O)C[C@H](O)C[C@](O)(C[C@@H]1O)O2	-	32 µg/mL	HFF	plaque count	TYPE 4	inhibition	Adenovirus	15%
CC=NC(=N)c1nc(-c2ccc(OC)cc2)n(C/C=C/c2ccccc2)n1	-	-	VERO	cytopathic effect	TYPE 1	EC50	Reovirus	>100 µg/mL
CC(C)O[C@@H]1[C@H](OC(C)C)[C@@H](COS(=O)(=O)NC(=O)O[C@@H]2C[C@@H](OC(=O)c3ccccc3)[C@H](OC(=O)c3ccccc3)[C@@H](COC(=O)c3ccccc3)O2)O[C@H]1n1ccc(=O)[nH]c1=O	-	-	VERO	plaque count	-	EC50	Sindbis virus	100 µg/mL
Nc1nc2c(ncn2COCCO)c(=O)[nH]1	-	1 µg/mL	HELF	plaque count	YS	inhibition	Varicella zoster virus	50%
Nc1nc2c(ncn2COC2COP(=O)(O)OC2)c(=O)[nH]1	-	-	GPE	plaque count	-	EC50	Guinea pig cytomegalovirus	1.84 µM
O=C(NCc1ccc(Cl)cc1)c1c[nH]c2ccc(CCCO)cc2c1=O	-	-	-	plaque count	-	EC50	Simian varicella-zoster virus	3.7 µM
NCCCC[C@H](NC(=O)[C@H](CCCN=C(N)N)NC(=O)[C@H](CCCN=C(N)N)NC(=O)[C@H](CCCCN)NC(=O)[C@H](CCCCN)NC(=O)[C@@H](N)CCCCN)C(=O)N[C@@H](CCCN=C(N)N)C(=O)O	-	200 µM	-	-	ATCC 32264	inhibition	Cryptococcus neoformans	60%
O=C(NC(=S)Nc1ccccc1)c1ccccc1COc1ccc(F)cc1	-	-	Human foreskin fibroblasts (HFF)	-	RH beta-gal	EC50	Toxoplasma gondii	109 µM
O=c1[nH]c(=O)n([C@@H]2O[C@H](CO)[C@@H](O)[C@@H]2O)cc1/C=C/Br	-	0.01 µg/mL	HELF	plaque count	Ohtomo	inhibition	Varicella zoster virus	100%
C=C(N=CC)c1nc(-c2cccc(OC)c2)n(C2O[C@H](CO)[C@@H](O)[C@H](O)[C@H]2O)n1	-	-	VERO	cytopathic effect	-	EC50	Semliki Forest virus	>200 µg/mL
O=C(NC(=S)Nc1ccc(Cl)cc1Cl)c1ccccc1COc1ccc(Cl)cc1	-	-	Human foreskin fibroblasts (HFF)	-	RH beta-gal	EC50	Toxoplasma gondii	97 µM
Cc1cn([C@@H]2O[C@H](CO)[C@@H](O)[C@@H]2F)c(=O)nc1N	-	0.01 µg/mL	HELF	plaque count	HIRAI	inhibition	Varicella zoster virus	100%
COc1ccc(NC(=S)NC(=O)c2ccccc2COc2ccc(OC)cc2)cc1	-	-	Human foreskin fibroblasts (HFF)	-	RH beta-gal	EC50	Toxoplasma gondii	57 µM
O=C(Nc1ccc(NC(=S)Nc2cc(C(F)(F)F)cc(C(F)(F)F)c2)cc1)c1csnn1	-	-	HFF	virus yield	Colburn	EC50	Simian cytomegalovirus	>20 µM
COc1ccc(OCc2ccccc2C(=O)NC(=S)Nc2cccc([N+](=O)[O-])c2)cc1	-	-	Human foreskin fibroblasts (HFF)	-	RH beta-gal	EC50	Toxoplasma gondii	104 µM
CCC(C)n1ncn(-c2ccc(N3CCN(c4ccc(OC[C@H]5CO[C@](Cn6cncn6)(c6ccc(Cl)cc6Cl)O5)cc4)CC3)cc2)c1=O	mpkC	16 µg/mL	-	broth dilution	AF293	inhibition	Aspergillus fumigatus	99.83%
O=C(NC(=S)Nc1ccc(Cl)cc1)c1ccccc1COc1ccc(F)cc1	-	-	Human foreskin fibroblasts (HFF)	-	RH beta-gal	EC50	Toxoplasma gondii	63 µM
CN=C(N)c1ccc(N2CCN(c3ccccc3)CC2)cc1	-	0.1 µg/mL	-	-	-	inhibition	Pneumocystis carinii	42%

For reference, 3 entries again:

| structure | mutations | dose | cell line | read by | strain or isolate | measure | organism | value |
|---|---|---|---|---|---|---|---|---|
| Nc1nc2c(ncn2COC2COP(=O)(O)OC2)c(=O)[nH]1 | - | - | GPE | plaque count | - | EC50 | Guinea pig cytomegalovirus | 1.84 µM |
| Cc1ccc2c(c1)C(C=NNC(=O)N1c3ccccc3C=Cc3ccccc31)C(c1ccccc1)=N2 | - | 500 µg/mL | - | agar diffusion | MTCC-1782 | zone | Aspergillus terreus | 3 mm |
| Cc1cn([C@@H]2O[C@H](CO)[C@@H](O)[C@@H]2F)c(=O)nc1N | - | 0.01 µg/mL | HELF | plaque count | HIRAI | inhibition | Varicella zoster virus | 100% |